# Measured values published in patent US9115407B2, “Ratiometric pre-rRNA analysis” (dated 2015).
# Columns and labels:
# A. hydrophila [1] = experiment: Viable plating of A. hydrophila cell suspensions after chlorine exposure; settings: for Percent viability: normalized to estimated 1 × 10^6 input bacteria
# A. hydrophila [2] = experiment: Ratiometric pre-rRNA analysis (RT-qPCR) of chlorine-treated cell suspensions after 1 hour of nutritional stimulation; settings: mean ± SD of 3 replicate samples
# [3] = Experiment 1, hypochlorite 1 mg/l
# [4] = Experiment 1, hypochlorite 2 mg/l
# [5] = Experiment 1, hypochlorite 3 mg/l
# [6] = Experiment 1, hypochlorite 4 mg/l
# [7] = Experiment 2, hypochlorite 1 mg/l
# [8] = Experiment 2, hypochlorite 1.5 mg/l
# [9] = Experiment 2, hypochlorite 2 mg/l
substance,measurement,setting,value
sodium hypochlorite,Final cfu/mL,A. hydrophila [1]; [3],279000 cfu/mL
same,Percent viability,A. hydrophila [1]; [3],27.9%
same,Final cfu/mL,A. hydrophila [1]; [4],190 cfu/mL
same,Percent viability,A. hydrophila [1]; [4],0.02%
same,Final cfu/mL,A. hydrophila [1]; [5],0 cfu/mL
same,Percent viability,A. hydrophila [1]; [5],0%
same,Final cfu/mL,A. hydrophila [1]; [6],0 cfu/mL
same,Percent viability,A. hydrophila [1]; [6],0%
same,Final cfu/mL,A. hydrophila [1]; [7],846000 cfu/mL
same,Percent viability,A. hydrophila [1]; [7],84.6%
same,Final cfu/mL,A. hydrophila [1]; [8],186000 cfu/mL
same,Percent viability,A. hydrophila [1]; [8],18.6%
same,Final cfu/mL,A. hydrophila [1]; [9],0 cfu/mL
same,Percent viability,A. hydrophila [1]; [9],0%
same,Pre-rRNA stimulation ratio,A. hydrophila [2]; [3],17.2 ± 3.6
same,Pre-rRNA stimulation ratio,A. hydrophila [2]; [4],73.0 ± 54.2
same,Pre-rRNA stimulation ratio,A. hydrophila [2]; [5],0.6 ± 1.0
same,Pre-rRNA stimulation ratio,A. hydrophila [2]; [6],0.04 ± 0.1
same,Pre-rRNA stimulation ratio,A. hydrophila [2]; [7],17.44 ± 5.4
same,Pre-rRNA stimulation ratio,A. hydrophila [2]; [8],16.47 ± 6.6
same,Pre-rRNA stimulation ratio,A. hydrophila [2]; [9],1.28 ± 0.4
